Results of unrelated studies side by side (data: NIAID ChemDB).

Shared fields: tests in culture; agent: Candida albicans; endpoint: zone

Zones are inhibition diameters on agar. Conditions beyond the fields shown may differ between rows.

{"structure": "Fc1cccc(Cl)c1/C=N/n1c(C23CC4CC(CC(C4)C2)C3)n[nH]c1=S", "strain": "IFO 3007", "method": "agar diffusion", "tested at": "200 µg/disc", "result": "<10 mm"}
{"structure": "CCC(C)CCCCCCCCCCC(=O)N[C@H]1C[C@@H](O)[C@@H](SCC(=O)OC)NC(=O)C2[C@@H](O)[C@@H](C)CN2C(=O)C(CO)NC(=O)C([C@H](O)C(O)c2ccc(O)cc2)NC(=O)NC(=O)[C@@H]2C[C@@H](O)CN2C(=O)[C@H]([C@@H](C)O)NC1=O", "strain": "IV", "method": "agar", "tested at": "1 mg/mL", "result": "20 mm"}
{"structure": "C=C[C@]1(C)CC[C@H](O)[C@@](C)(CCC=C(C)C)O1", "method": "agar diffusion / agar", "tested at": "20000 µg/mL", "result": "10.86 mm"}
{"structure": "CCCC[n+]1ccccc1CN1C(=O)c2cccc3c(N=Nc4ccc(N(CC)CCO)cc4)ccc(c23)C1=O", "strain": "ATCC 10231", "method": "agar diffusion / agar", "tested at": "128 µg/disc", "result": "30 mm"}
{"structure": "CCC(C)CCCCCCCCCCC(=O)N[C@H]1C[C@@H](O)[C@@H](NCCN2CCOCC2)NC(=O)C2[C@@H](O)[C@@H](C)CN2C(=O)C(CO)NC(=O)C([C@H](O)C(O)c2ccc(O)cc2)NC(=O)NC(=O)[C@@H]2C[C@@H](O)CN2C(=O)[C@H]([C@@H](C)O)NC1=O", "strain": "IV", "method": "agar", "tested at": "2 mg/mL", "result": "13 mm"}
{"structure": "Fc1ccc(/C=N/n2c(C34CC5CC(CC(C5)C3)C4)n[nH]c2=S)cc1", "strain": "IFO 3007", "method": "agar diffusion", "tested at": "200 µg/disc", "result": "17 mm"}
{"structure": "Cn1c(=O)c(-c2[nH][nH]c(=O)c2N=Nc2ccccc2Br)c(O)c2ccccc21", "strain": "ATCC 10231", "method": "agar diffusion", "tested at": "1 mg/mL", "result": "11 mm"}
{"structure": "CCC(C)CCCCCCCCCCC(=O)N[C@H]1C[C@@H](O)[C@@H](S(=O)(=O)CC(=O)OC)NC(=O)C2[C@@H](O)[C@@H](C)CN2C(=O)C(CO)NC(=O)C([C@H](O)C(O)c2ccc(O)cc2)NC(=O)NC(=O)[C@@H]2C[C@@H](O)CN2C(=O)[C@H]([C@@H](C)O)NC1=O", "strain": "IV", "method": "agar", "tested at": "2 mg/mL", "result": "23 mm"}
{"structure": "CC(=O)Nc1nc(C)c(-c2n[nH]c(=S)n2N2C(=O)CSC2c2ccccc2)s1", "method": "agar diffusion", "tested at": "100 µg/mL", "result": "26 mm"}
{"structure": "CCC(C)CCCCCCCCCCC(=O)N[C@H]1C[C@@H](O)[C@@H](OC)NC(=O)C2[C@@H](O)[C@@H](C)CN2C(=O)C(CO)NC(=O)C([C@H](O)C(O)c2ccc(O)cc2)NC(=O)NC(=O)[C@@H]2C[C@@H](O)CN2C(=O)[C@H]([C@@H](C)O)NC1=O", "strain": "IV", "method": "agar", "tested at": "2 mg/mL", "result": "26 mm"}
{"structure": "S=c1n(CN2CCN(Cc3ccccc3)CC2)nc(C23CC4CC(CC(C4)C2)C3)n1/N=C/c1c(Cl)cccc1Cl", "strain": "IFO 3007", "method": "agar diffusion", "tested at": "200 µg/disc", "result": "<10 mm"}
{"structure": "Cn1c(=O)c(-c2[nH][nH]c(=O)c2/C=N/c2ncccn2)c(O)c2ccccc21", "strain": "ATCC 10231", "method": "agar diffusion", "tested at": "1 mg/mL", "result": "7 mm"}
{"structure": "COc1ccc(C2SCC(=O)N2n2c(-c3sc(NC(C)=O)nc3C)n[nH]c2=S)cc1", "method": "agar diffusion", "tested at": "100 µg/mL", "result": "13 mm"}
{"structure": "COc1ccccc1N1CCN(Cn2nc(C34CC5CC(CC(C5)C3)C4)n(/N=C/c3c(Cl)cccc3Cl)c2=S)CC1", "strain": "IFO 3007", "method": "agar diffusion", "tested at": "200 µg/disc", "result": "<10 mm"}
{"structure": "COc1ccc(N2C(=O)N(c3ccc(Cl)c(C(F)(F)F)c3)C(=N)C2=S)cc1", "strain": "IMRU-3669", "method": "agar diffusion / agar", "tested at": "5 mg/mL", "result": "16.5 mm"}
{"structure": "CN1C(=O)/C(=c2/[nH][nH]c(=O)/c2=C\\c2ccccc2)C(=O)c2ccccc21", "strain": "ATCC 10231", "method": "agar diffusion", "tested at": "1 mg/mL", "result": "14 mm"}
{"structure": "CC1(CN2C(=N)C(=S)N(c3ccc(F)cc3)C2=O)CCC(N2C(=N)C(=S)N(c3ccc(F)cc3)C2=O)C(C)(C)C1", "strain": "IMRU-3669", "method": "agar diffusion / agar", "tested at": "5 mg/mL", "result": "0 mm"}
{"structure": "C/C=C/C1=CC2=CC(=O)[C@](C)(OC(=O)c3c(C)cc(O)c(O)c3OC)C(=O)C2=CO1", "strain": "ATCC 64548", "method": "agar diffusion", "tested at": "0.1 µg/disc", "result": "0 mm"}
{"structure": "CC(=O)Nc1nc(C)c(-c2n[nH]c(=S)n2N2C(=O)CSC2c2ccc(C)cc2)s1", "method": "agar diffusion", "tested at": "100 µg/mL", "result": "25 mm"}
{"structure": "CCC(C)CCCCCCCCCCC(=O)N[C@H]1C[C@@H](O)[C@@H]([n+]2cc[nH]c2)NC(=O)C2[C@@H](O)[C@@H](C)CN2C(=O)C(CO)NC(=O)C([C@H](O)C(O)c2ccc(O)cc2)NC(=O)NC(=O)[C@@H]2C[C@@H](O)CN2C(=O)[C@H]([C@@H](C)O)NC1=O", "strain": "IV", "method": "agar", "tested at": "2 mg/mL", "result": "24 mm"}
{"structure": "N=C1C(=S)N(c2cccc(F)c2)C(=O)N1c1ccc(F)cc1", "strain": "IMRU-3669", "method": "agar diffusion / agar", "tested at": "5 mg/mL", "result": "19 mm"}
{"structure": "Cn1c(=O)c(-c2[nH][nH]c(=O)c2N=Nc2ccc(N)cc2)c(O)c2ccccc21", "strain": "ATCC 10231", "method": "agar diffusion", "tested at": "1 mg/mL", "result": "13 mm"}
{"structure": "CC(=O)Nc1nc(C)c(-c2n[nH]c(=S)n2N2C(=O)CSC2c2ccccc2[N+](=O)[O-])s1", "method": "agar diffusion", "tested at": "100 µg/mL", "result": "7 mm"}
{"structure": "COc1ccccc1/C=N/n1c(C23CC4CC(CC(C4)C2)C3)n[nH]c1=S", "strain": "IFO 3007", "method": "agar diffusion", "tested at": "200 µg/disc", "result": "<10 mm"}
{"structure": "N=C1C(=S)N(c2ccccc2)C(=O)N1c1ccc(F)cc1", "strain": "IMRU-3669", "method": "agar diffusion / agar", "tested at": "5 mg/mL", "result": "13 mm"}
{"structure": "CCC(C)CCCCCCCCCCC(=O)N[C@H]1C[C@@H](O)[C@@H](Sc2ccccc2)NC(=O)C2[C@@H](O)[C@@H](C)CN2C(=O)C(CO)NC(=O)C([C@H](O)C(O)c2ccc(O)cc2)NC(=O)NC(=O)[C@@H]2C[C@@H](O)CN2C(=O)[C@H]([C@@H](C)O)NC1=O", "strain": "IV", "method": "agar", "tested at": "2 mg/mL", "result": "16 mm"}
{"structure": "Cn1c(=O)c(-c2[nH][nH]c(=O)c2N=Nc2cccc(Cl)c2)c(O)c2ccccc21", "strain": "ATCC 10231", "method": "agar diffusion", "tested at": "1 mg/mL", "result": "14 mm"}

Repeating the final 2 entries:

structure | strain | method | tested at | result
CCC(C)CCCCCCCCCCC(=O)N[C@H]1C[C@@H](O)[C@@H](Sc2ccccc2)NC(=O)C2[C@@H](O)[C@@H](C)CN2C(=O)C(CO)NC(=O)C([C@H](O)C(O)c2ccc(O)cc2)NC(=O)NC(=O)[C@@H]2C[C@@H](O)CN2C(=O)[C@H]([C@@H](C)O)NC1=O | IV | agar | 2 mg/mL | 16 mm
Cn1c(=O)c(-c2[nH][nH]c(=O)c2N=Nc2cccc(Cl)c2)c(O)c2ccccc21 | ATCC 10231 | agar diffusion | 1 mg/mL | 14 mm